Data as given in PubChem BioAssay AID624099 (ICCB-Longwood, 2012).

Purpose: 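Human genes that papillomavirus E2 requires to repress the HPV18 LCR promoter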 (primary screen)
Cell system: human C33A cervical carcinoma cells (HPV-negative) stably expressing BPV1 E2 and an HPV18 LCR luciferase reporter
Reagent: siRNA pool against human genes, 40 nM
Time to read-out: 72 h
Measured: 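HPV18 LCR reporter light per well, converted to plate-wise z-scores that exclude control wells, and averaged over triplicate plates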
Direction: mean z-score and z-score: higher = stronger reporter signal, weaker E2 silencing
Call rule: 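Hit if mean z-score reaches 2 and two or more of three replicate z-scores also reach 2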
The whole screen tested about 21,000 reagents; below is a part drawn at random. Over the whole deposit, 497 (2.4%) got an active call. 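Higher z means weaker E2 silencing; only reporter increases were scored, and knock-downs that hurt cell survival may mask genuine repressor factors.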

| gene symbol | mean z-score | z-score, replicate A | z-score, replicate B | z-score, replicate C | activity call |
| --- | --- | --- | --- | --- | --- |
| KLHDC10 | 0.28 | 0.52 | 0.05 | 0.28 | inactive |
| REPIN1 | -2.05 | -2.01 | -1.9 | -2.25 | inactive |
| NOSIP | 0.72 | 0.69 | 0.45 | 1.03 | inactive |
| LOC401513 (retired record) | -3.25 | -3.52 | -3.08 | -3.16 | inactive |
| CDY2B | -0.62 | -0.5 | -0.73 | -0.64 | inactive |
| OR4C13 | 0.99 | 0.82 | 1.15 | 1 | inactive |
| PPFIBP1 | 1.29 | 1.43 | 1.36 | 1.08 | inactive |
| CLCA3P | -0.59 | -0.57 | -0.71 | -0.49 | inactive |
| MTTP | -0.65 | -1.07 | -0.93 | 0.05 | inactive |
| SRSF7 | 0.4 | -0.08 | 0.4 | 0.87 | inactive |
| LIN37 | -0.23 | -0.36 | -0.08 | -0.25 | inactive |
| CRBN | 0.1 | -0.51 | 0.44 | 0.38 | inactive |
| LSM14B | 1.12 | 1.08 | 1.26 | 1.03 | inactive |
| PSMF1 | 0.55 | 0.86 | 0.26 | 0.53 | inactive |
| RNASE10 | -1.08 | -0.94 | -1.33 | -0.99 | inactive |
| HLA-DMB | 1.07 | 1.01 | 1.27 | 0.93 | inactive |
| RPRM | 0.17 | 0.13 | 0.4 | -0.02 | inactive |
| TRUB2 | -1.36 | -1.39 | -1.49 | -1.19 | inactive |
| TMEM17 | -0.61 | -0.82 | -0.55 | -0.48 | inactive |
| LOC391481 (retired record) | 0.32 | 0.43 | 0.06 | 0.47 | inactive |
| OR6C65 | -1.06 | -1.09 | -0.81 | -1.27 | inactive |
| FLOT2 | 1.08 | 1.13 | 1.14 | 0.97 | inactive |
| FSIP1 | 2.21 | 1.5 | 2.31 | 2.81 | active |
| LOC389100 (retired record) | -2.79 | -2.85 | -2.93 | -2.58 | inactive |
| NMRK1 | 1.62 | 1.48 | 1.7 | 1.68 | inactive |
| LINC02908 | -0.42 | -0.53 | -0.33 | -0.39 | inactive |
| RAB34 | -0.19 | -0.53 | -0.04 | -0.01 | inactive |
| FGF10 | -0.34 | -0.24 | -0.44 | -0.34 | inactive |
| CXADR | 0.57 | 0.56 | 1 | 0.16 | inactive |
| DBH | 0.61 | 0.71 | 0.68 | 0.44 | inactive |
| GATC | -0.96 | -0.68 | -1.08 | -1.12 | inactive |
| PTPRB | 0.62 | 0.65 | 0.83 | 0.37 | inactive |
| LTB4R | 0.49 | 0.4 | 0.06 | 1.01 | inactive |
| DYSF | -1.02 | -0.88 | -1.09 | -1.09 | inactive |
| INAVA | 1 | 1.05 | 0.91 | 1.03 | inactive |

A run of entries taken from the entries so far:
| gene symbol | mean z-score | z-score, replicate A | z-score, replicate B | z-score, replicate C | activity call |
| --- | --- | --- | --- | --- | --- |
| LOC389100 (retired record) | -2.79 | -2.85 | -2.93 | -2.58 | inactive |
| NMRK1 | 1.62 | 1.48 | 1.7 | 1.68 | inactive |
| LINC02908 | -0.42 | -0.53 | -0.33 | -0.39 | inactive |
| RAB34 | -0.19 | -0.53 | -0.04 | -0.01 | inactive |
| FGF10 | -0.34 | -0.24 | -0.44 | -0.34 | inactive |
| CXADR | 0.57 | 0.56 | 1 | 0.16 | inactive |
| DBH | 0.61 | 0.71 | 0.68 | 0.44 | inactive |
| GATC | -0.96 | -0.68 | -1.08 | -1.12 | inactive |
| PTPRB | 0.62 | 0.65 | 0.83 | 0.37 | inactive |

Next reagents:
| gene symbol | mean z-score | z-score, replicate A | z-score, replicate B | z-score, replicate C | activity call |
| --- | --- | --- | --- | --- | --- |
| ABCD3 | 1.92 | 2.08 | 1.78 | 1.91 | inactive |
| LRRC40 | -0.14 | 0.17 | -0.14 | -0.46 | inactive |
| BCL2L13 | -0.54 | -0.56 | -0.62 | -0.45 | inactive |
| SH3PXD2A | -0.35 | -0.28 | -0.13 | -0.64 | inactive |
| UGT3A1 | 0.16 | 0.55 | 0.16 | -0.24 | inactive |
| RNF151 | -0.65 | -0.62 | -0.64 | -0.68 | inactive |
| YJEFN3 | 0.61 | 0.43 | 0.66 | 0.74 | inactive |
| DBX2 | 0.05 | 0.15 | 0.22 | -0.22 | inactive |
| LOC285694 (retired record) | 1.34 | 1.07 | 1.34 | 1.6 | inactive |
| LOC402066 (retired record) | -0.81 | -0.87 | -0.35 | -1.21 | inactive |
| IL17RC | 0.57 | 0.79 | 0.68 | 0.24 | inactive |
| UCN | -1.43 | -1.51 | -1.45 | -1.32 | inactive |
| N4BP2 | -0.19 | 0 | -0.41 | -0.16 | inactive |
| SLC14A1 | 0.47 | 0.7 | 0.61 | 0.11 | inactive |
| FAM110B | -1.39 | -1.45 | -1.16 | -1.57 | inactive |
| SNHG29 | -0.68 | -0.52 | -0.47 | -1.07 | inactive |
| STAG3 | -1.01 | -0.32 | -1.2 | -1.52 | inactive |
| SURF4 | -0.49 | -0.39 | -0.77 | -0.32 | inactive |
| SYTL3 | -1.98 | -1.99 | -2.05 | -1.91 | inactive |
| RPF1 | 0.03 | 0.18 | -0.16 | 0.07 | inactive |
| CCAR2 | -1.42 | -1.6 | -1.43 | -1.22 | inactive |
| NRSN1 | -0.79 | -0.6 | -1.13 | -0.63 | inactive |
